## Mutational scan of HIV-1 Vif (1203) in cells with APOBEC3G

The measurements come from Langley et al. 2025, preprint (doi:10.1101/2025.10.20.683452).

Scanned stretch, residues 12 to 115 of Vif from HIV-1 1203 (a subtype B primary isolate):
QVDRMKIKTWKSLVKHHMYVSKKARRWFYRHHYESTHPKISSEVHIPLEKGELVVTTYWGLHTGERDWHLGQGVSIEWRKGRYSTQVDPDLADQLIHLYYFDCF

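Pooled viruses with one designed change each in Vif went through two 72 h rounds in SupT1 cells expressing APOBEC3G. Frequencies after the second round, in three biological replicates, were compared with the merged pool after the first round. The overlap of vif with pol had been removed, so integrase is unaffected.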

Scale: log2 enrichment, wild type = 0; negative values mean that the variant was depleted.
Each entry names the wild-type residue, its position and the residue put in its place.
This list holds changes to threonine only.
The median of three replicates is given.
Input reads are the counts in the merged round-one pool, before selection.
Not every substitution is listed.
Positive scores are uncertain; some enriched variants did not exclude APOBEC3G in a separate test.
The scan is noisy: the rank correlation of replicates is about 0.4 to 0.65, and variants with under about 50 input reads tend to read too high.

For D14T (input reads 271) the result was -1.60. With M16T (input reads 293) the assay gave -1.94. For K17T (input reads 102) the result was -1.95. For I18T (input reads 276) the result was -1.60. For K19T (input reads 1944) the result was -2.08. For L24T (input reads 562) the result was -2.13. With K34T (input reads 1038) the assay gave -1.79.

Y40T (input reads 282) read -1.66. With H42T (input reads 2332) the assay gave -1.49. H43T (input reads 78) gave 3.16. For S46T (input reads 77) the result was 1.12. For K50T (input reads 307) the result was -1.94. I51T (input reads 29) gave 2.85. With E54T (input reads 192) the assay gave -2.07.

For H56T (input reads 88) the result was -1.43. I57T (input reads 201) read -2.87. For L59T (input reads 210) the result was -1.76. E60T (input reads 169) read -2.59. L64T (input reads 141) read -2.00. V66T (input reads 340) read -1.81. G71T (input reads 262) read -2.58.

H73T (input reads 186) read -2.96. For G75T (input reads 235) the result was -3.93. E76T (input reads 212) read 0.83. R77T (input reads 25) gave 0.12. D78T (input reads 602) read -2.80. V85T (input reads 536) read -1.32. With I87T (input reads 218) the assay gave 0.12.

With R90T (input reads 207) the assay gave -2.39. S95T (input reads 490) gave -1.12. P100T (input reads 16) read 4.25. D101T (input reads 274) gave -2.01. For L102T (input reads 31) the result was -3.37. A103T (input reads 214) gave -2.73. For H108T (input reads 339) the result was -3.66.

With F112T (input reads 353) the assay gave -0.91. With C114T (input reads 482) the assay gave -2.30.

A selection of 4 entries from above:

{"substitution": "F112T", "input reads": "353", "median log2 enrichment": -0.91}
{"substitution": "K34T", "input reads": "1038", "median log2 enrichment": -1.79}
{"substitution": "L59T", "input reads": "210", "median log2 enrichment": -1.76}
{"substitution": "H108T", "input reads": "339", "median log2 enrichment": -3.66}